A mixed list of measured activities; the numbers were collected in NIAID ChemDB.

Common to all: growth or infection tests; organism: Mycobacterium tuberculosis

Inhibition is in % at the dose shown (toxicity tests: loss of growth or viability). MIC bound: limit read from a one-dose screen. ECn is the concentration giving n% inhibition of infection, replication or growth. Blank or dashed fields: not listed here. Rows are shuffled and stem from different studies.

compound,cell line,strain or isolate,dose,mutations,read-out,method,result
O=C(CSc1nnc(-c2ccccn2)s1)N/N=c1/scc(-c2ccccc2)n1-c1ccccc1Br,,Clinical isolate 190,,,MIC,,>80 µg/mL
CCC(C)c1c(N)n(S(=O)(=O)c2ccc(C)cc2)oc1=O,,H37Rv,,,MIC bound,resazurin,>6.25 µg/mL
CC1CCCC2(C1)SC(C)C(=O)N2NC(=O)Cc1csc2nc(-c3ccc(Cl)cc3)cn12,,H37Rv,6.25 µg/mL,,inhibition,,66%
Cc1cnc(NC(=O)c2cnc(C(C)(C)C)c(Cl)n2)s1,,H37Rv,6.25 µg/mL,,inhibition,,61%
CC(C)C(=O)c1cn(-c2cccc3ccccc23)nn1,,H37Rv,,,MIC,,>12.5 µg/mL
O=C(Cc1csc2nc(-c3ccccc3)cn12)NN=C1CCCC1,,H37Rv,,,EC50,,>6.25 µg/mL
O=C(/C=C/c1ccc(O)c(O)c1)OCc1ccccc1,,H37Rv,12.5 µg/mL,,inhibition,BACTEC,33%
O.O=C(Cc1csc2nc(-c3ccccc3)cn12)NN1C(=O)CSC12CCCCC2,VERO,H37Rv,,,EC50,,<6.25 µg/mL
O=C(CSc1nnc(-c2ccccn2)s1)N/N=c1/scc(-c2ccccc2Br)n1-c1ccccc1,,Clinical isolate 180,,,MIC,,80 µg/mL
COc1ccc(/C=C2\N=C(c3ccccc3)OC2=O)c(OC)c1C,,H37Rv,,,MIC bound,BACTEC,≤12.5 µg/mL
O=C(CSc1nnc(-c2ccccn2)s1)N/N=c1/scc(-c2ccccc2)n1-c1ccccc1Cl,,Clinical isolate 331,,,MIC,,>80 µg/mL
CC(=O)Nc1ccc(/C=C2\N=C(c3ccccc3)OC2=O)cc1,,H37Rv,,,MIC bound,BACTEC,>12.5 µg/mL
CC1CCCC2(C1)SCC(=O)N2NC(=O)Cc1csc2nc(-c3ccc(Cl)cc3)cn12,,H37Rv,6.25 µg/mL,,inhibition,,36%
COc1cccc(NC(=O)c2cnc(C(C)(C)C)c(Cl)n2)c1,,H37Rv,6.25 µg/mL,,inhibition,,23%
NNC(=O)c1cccc(N)c1C(=O)NN,,H37Rv,,,MIC bound,BACTEC,>12.5 µg/mL
Cc1csc(NC(=O)c2cnc(C(C)(C)C)cn2)n1,,H37Rv,6.25 µg/mL,,inhibition,,35%
C=C(C)/C=C/[C@]12C[C@H](C)[C@H]3CC[C@](C)(NC)[C@@H](CC[C@H]1C)[C@@H]32,,H37Rv,32 µg/mL,,inhibition,,100%
CO[C@H]1/C=C/O[C@@]2(C)Oc3c(C)c(O)c4c(O)c(c(/C=N/N5CCN(C/C=C/c6ccccc6)CC5)c(O)c4c3C2=O)NC(=O)/C(C)=C\C=C\[C@H](C)[C@H](O)[C@@H](C)[C@@H](O)[C@@H](C)[C@H](OC(C)=O)[C@@H]1C,,H37Rv,,,MIC,,0.2 µg/mL
O=C(CNc1ccccn1)Nn1cnc2ccc(S(=O)(=O)Nc3ccccn3)cc2c1=O,,H37Rv,12.5 µg/mL,,inhibition,BACTEC,0%
O=C(c1ccccc1)c1cn(-c2cccc3ccccc23)nn1,,H37Rv,12.5 µg/mL,,inhibition,,22%
O=C(Nc1nccs1)c1cncc(Cl)n1,,H37Rv,6.25 µg/mL,,inhibition,,32%
Cc1ccc(C)n1-c1ccsc1C(=O)NNC(=O)C(Cl)=C(Cl)Cl,,H37Rv,,,MIC bound,BACTEC,>12.5 µg/mL
CO[C@H]1/C=C/O[C@@]2(C)Oc3c(C)c(O)c4c(O)c(c(/C=N/Nc5ccccc5)c(O)c4c3C2=O)NC(=O)/C(C)=C\C=C\[C@H](C)[C@H](O)[C@@H](C)[C@@H](O)[C@@H](C)[C@H](OC(C)=O)[C@@H]1C,,H37Rv,,,EC50,,2 µg/mL
Cn1c(=O)c2c3c(cnc2n(C)c1=O)C(=O)C1=C(C3=O)C2CCC1C2,,H37Rv,,pSMT1 luciferase reporter plasmid,EC90,luminescence,5.87 µg/mL
CC1CCC/C(=N\NC(=O)Cc2csc3nc(-c4ccccc4)cn23)C1,,H37Rv,,,MIC,,>6.25 µg/mL
CO[C@H]1/C=C/O[C@@]2(C)Oc3c(C)c(O)c4c(O)c(c(/C=N/N5C=NNC5)c(O)c4c3C2=O)NC(=O)/C(C)=C\C=C\[C@H](C)[C@H](O)[C@@H](C)[C@@H](O)[C@@H](C)[C@H](OC(C)=O)[C@@H]1C,,H37Rv,,,EC50,,>5 µg/mL
CCC(C(N)=O)N1C(=O)C2C3CCC(O3)C2C1=O,,H37Rv,12.5 µg/mL,,inhibition,BACTEC,8%
CC1CCC(=NNC(=O)Cc2csc3nc(-c4ccc(Cl)cc4)cn23)CC1,,H37Rv,,,EC50,,>6.25 µg/mL
CC(=O)Oc1cc2nc3ccccc3nc2cc1N(C)C,,H37Rv,12.5 µg/mL,,inhibition,BACTEC,99%
O=C(c1cn(-c2ccccc2)nn1)c1ccco1,,H37Rv,,,MIC,,>12.5 µg/mL
CO[C@H]1/C=C/O[C@@]2(C)Oc3c(C)c(O)c4c(O)c(c5c(c4c3C2=O)NC2(CCN(CC(C)C)CC2)N=5)=NC(=O)/C(C)=C\C=C\[C@H](C)[C@H](O)[C@@H](C)[C@@H](O)[C@@H](C)[C@H](OC(C)=O)[C@@H]1C,,2235 (rifampicin-susceptible),,,MIC,,≤0.062 µg/mL
CCN(CC)/N=C/c1c2c(O)c3c(O)c(C)c4c(c3c1O)C(=O)[C@@](C)(O/C=C/[C@H](OC)[C@@H](C)[C@@H](OC(C)=O)[C@H](C)[C@H](O)[C@H](C)[C@@H](O)[C@@H](C)/C=C/C=C(/C)C(=O)N2)O4,,H37Rv,,,EC50,,0.02 µg/mL
C[N+](C)(C)CC(=O)NNC(=O)CCn1[nH]c(=O)c(Cl)c(Cl)c1=O.[Cl-],,H37Rv,12.5 µg/mL,,inhibition,BACTEC,5%
NNC(=O)c1ccncc1,,H37Rv,,,MIC,visual reading / absorbance,0.1 µM
CN/N=C/c1c2c(O)c3c(O)c(C)c4c(c3c1O)C(=O)[C@@](C)(O/C=C/[C@H](OC)[C@@H](C)[C@@H](OC(C)=O)[C@H](C)[C@H](O)[C@H](C)[C@@H](O)[C@@H](C)/C=C/C=C(/C)C(=O)N2)O4,,H37Rv,,,EC50,,5 µg/mL
CCCCC/C(CC1NC(=S)NC1=O)=N\NC(=O)c1ccncc1,,,,KatG S315T,MIC,visual reading / absorbance,25 µM
C=C/C(C)=C/[C@@]1(C)SC(=O)C(C)=C1O,,H37Rv,,,MIC,,2.5 µg/mL
CCOC(=O)c1[nH]cc(C)c1-c1cc2c(-c3ccccc3)nc3ccccc3n2c1,,H37Rv,,,EC50,,<12.5 µg/mL
CO[C@H]1/C=C/O[C@@]2(C)Oc3c(C)c(O)c4c(O)c(c(/C=N/N5CCC(N(C)C)CC5)c(O)c4c3C2=O)NC(=O)/C(C)=C\C=C\[C@H](C)[C@H](O)[C@@H](C)[C@@H](O)[C@@H](C)[C@H](OC(C)=O)[C@@H]1C,,H37Rv,,,EC50,,2 µg/mL
O=C(Nc1ccc(Cl)c(Cl)c1)c1cncc(Cl)n1,,H37Rv,6.25 µg/mL,,inhibition,,61%
O=C(c1cn[nH]n1)c1ccc(Cl)cc1Cl,,H37Rv,12.5 µg/mL,,inhibition,,0%
CO[C@H]1/C=C/O[C@@]2(C)Oc3c(C)c(O)c4c(O)c(c(/C=N/N5CCOCC5)c(O)c4c3C2=O)NC(=O)/C(C)=C\C=C\[C@H](C)[C@H](O)[C@@H](C)[C@@H](O)[C@@H](C)[C@H](OC(C)=O)[C@@H]1C,,H37Rv,,,EC50,,0.2 µg/mL
CCOP(=O)(OCC)/C(C#N)=C\c1cccn1C(C)C,,H37Rv,,,MIC bound,BACTEC,>12.5 µg/mL
CCCCCn1c(=O)c2c3c(cnc2n(CCCCC)c1=O)C(=O)C1=C(C3=O)C2CCC1C2,,H37Rv,,pSMT1 luciferase reporter plasmid,EC99,luminescence,9.54 µg/mL
CCCN(CCC)/N=C/c1c2c(O)c3c(O)c(C)c4c(c3c1O)C(=O)[C@@](C)(O/C=C/[C@H](OC)[C@@H](C)[C@@H](OC(C)=O)[C@H](C)[C@H](O)[C@H](C)[C@@H](O)[C@@H](C)/C=C/C=C(/C)C(=O)N2)O4,,H37Rv,,,EC50,,0.05 µg/mL
O=C(c1ccc2ccccc2c1)c1cn(-c2cccc3ccccc23)nn1,,H37Rv,,,MIC,,>12.5 µg/mL
CO[C@H]1/C=C/O[C@@]2(C)Oc3c(C)c(O)c4c(O)c(c(/C=N/N=C(N)N)c(O)c4c3C2=O)NC(=O)/C(C)=C\C=C\[C@H](C)[C@H](O)[C@@H](C)[C@@H](O)[C@@H](C)[C@H](OC(C)=O)[C@@H]1C,,H37Rv,,,EC50,,5 µg/mL
CC(C)(C)c1cnc(C(=O)Nc2ccc(Cl)c(Cl)c2)cn1,,H37Rv,6.25 µg/mL,,inhibition,,15%
CC1CCC2(CC1)SCC(=O)N2NC(=O)Cc1csc2nc(-c3ccc(Cl)cc3)cn12,,H37Rv,,,EC50,,<6.25 µg/mL
Cc1c[nH]c(C(=O)NN)c1-c1cc2c(-c3ccccc3)nc3ccccc3n2c1,,H37Rv,12.5 µg/mL,,inhibition,,98%
Cc1cc2c(cc1C)[n+](=O)c(C(=O)CC(=O)C(=O)Nc1c(C(C)C)cccc1C(C)C)c(C)n2[O-],,H37Rv,,,MIC bound,resazurin,>6.25 µg/mL
O=C(NN1C(=O)CS(=O)(=O)C1c1ccc(C(F)(F)F)cc1)c1ccncc1,,,,KatG S315T,MIC,visual reading / absorbance,50 µM
COc1cccc2c1C(=O)c1c(O)c3c(c(O)c1C2=O)C[C@@](O)(/C(C)=N/NC(N)=O)CC3OC1CC(N)C(O)C(C)O1.Cl,,INH-r,,,MIC,,12.5 µg/mL
CC1SC2(CCCCC2)N(NC(=O)Cc2csc3nc(-c4ccccc4)cn23)C1=O.O.O,VERO,H37Rv,,,EC50,,<6.25 µg/mL
CNc1ncnc2c([C@@H]3O[C@H](CO)[C@@H](O)[C@H]3O)[nH]nc12,,H37Rv,,,MIC bound,BACTEC,>12.5 µg/mL
O=C(N/N=C(\c1nc2ccc([N+](=O)[O-])cc2[nH]c1=O)C(O)c1ccc([N+](=O)[O-])cc1)c1ccncc1,,,,inhA 15C to T,MIC,visual reading / absorbance,25 µM
O=C(Nc1ccccc1Br)c1cncc(Cl)n1,,H37Rv,6.25 µg/mL,,inhibition,,28%
CO[C@H]1/C=C/O[C@@]2(C)Oc3c(C)c(O)c4c(O)c(c(/C=N/N(C)c5ccccc5)c(O)c4c3C2=O)NC(=O)/C(C)=C\C=C\[C@H](C)[C@H](O)[C@@H](C)[C@@H](O)[C@@H](C)[C@H](OC(C)=O)[C@@H]1C,,H37Rv,,,EC50,,0.02 µg/mL
CCCCCn1c(=O)c2c3c(cnc2n(CCCCC)c1=O)C(=O)C1=C(C3=O)C2CCC1CC2,,H37Rv,,pSMT1 luciferase reporter plasmid,EC90,luminescence,4.78 µg/mL
O=C(CSc1nnc(-c2ccccn2)s1)N/N=c1/scc(-c2ccc([N+](=O)[O-])cc2)n1-c1ccccc1,,Clinical isolate 190,,,MIC,,40 µg/mL
C=C(C)C1CC=C(C)/C(=N/NC(=O)c2cccnc2)C1,,H37Rv,,KatG G285V,MIC,visual reading / absorbance,50 µM
Fc1cc(F)c2c(c1)Nc1cc(F)cc(F)c1S2,,H37Rv,12.5 µg/mL,,inhibition,BACTEC,29%
CC(C)(C)c1cnc(C(=O)Nc2ccccc2Br)cn1,,H37Rv,6.25 µg/mL,,inhibition,,22%
CC(C)OC(=O)c1cc[n+](CC(=O)c2ccc(F)cc2)cc1.[Br-],,,,MDR,MIC,resazurin,1 µg/mL
N[C@]1(C(=O)O)CC[C@H](C(=O)O)C1,,H37Rv,,,MIC bound,BACTEC,>12.5 µg/mL
O=C(c1cn(O)nn1)c1ccc(Br)cc1Br,,H37Rv,12.5 µg/mL,,inhibition,,0%
CCN(CCO)CCNc1ccc(C)c2sc3cc(Cl)ccc3c(=O)c12,,H37Rv,12.5 µg/mL,,inhibition,BACTEC,99%
CC(C)n1c(=O)c2c3c(cnc2n(C(C)C)c1=O)C(=O)C1=C(C3=O)C2CCC1C2,,H37Rv,,pSMT1 luciferase reporter plasmid,EC90,luminescence,1.5 µg/mL
Cc1cc(C)c(B2OB(c3c(C)cc(C)cc3C)O2)c(C)c1,,H37Rv,12.5 µg/mL,,inhibition,BACTEC,6%
Cc1coc(C)c1C(=O)c1cn(-c2ccc(Cl)cc2)nn1,,H37Rv,12.5 µg/mL,,inhibition,,0%
CC(C)=CCC/C(C)=C/COc1ccc(/C=C2\C(=O)N(O)[C@@H](C)C(=O)N2O)cc1,,KM-R,,,MIC,,>12.5 µg/mL
Cc1c[nH]c(C(=O)O)c1-c1ccc2c(-c3ccccc3)nc3ccccc3n12,,H37Rv,,,EC50,,>12.5 µg/mL

Repeating the first 6 entries:

compound | cell line | strain or isolate | dose | mutations | read-out | method | result
O=C(CSc1nnc(-c2ccccn2)s1)N/N=c1/scc(-c2ccccc2)n1-c1ccccc1Br |  | Clinical isolate 190 |  |  | MIC |  | >80 µg/mL
CCC(C)c1c(N)n(S(=O)(=O)c2ccc(C)cc2)oc1=O |  | H37Rv |  |  | MIC bound | resazurin | >6.25 µg/mL
CC1CCCC2(C1)SC(C)C(=O)N2NC(=O)Cc1csc2nc(-c3ccc(Cl)cc3)cn12 |  | H37Rv | 6.25 µg/mL |  | inhibition |  | 66%
Cc1cnc(NC(=O)c2cnc(C(C)(C)C)c(Cl)n2)s1 |  | H37Rv | 6.25 µg/mL |  | inhibition |  | 61%
CC(C)C(=O)c1cn(-c2cccc3ccccc23)nn1 |  | H37Rv |  |  | MIC |  | >12.5 µg/mL
O=C(Cc1csc2nc(-c3ccccc3)cn12)NN=C1CCCC1 |  | H37Rv |  |  | EC50 |  | >6.25 µg/mL